Measurements as given in publication PMC7105911 (Journal of Molecular Biology, 2011).

How the values were obtained:
Assay in all cases: SPR
[1] = target: T1, SC_2cx5 (side-chain grafting 2F5 epitope scaffold on parent PDB 2cx5) (designed scaffold on Thermus …)
T1 chain: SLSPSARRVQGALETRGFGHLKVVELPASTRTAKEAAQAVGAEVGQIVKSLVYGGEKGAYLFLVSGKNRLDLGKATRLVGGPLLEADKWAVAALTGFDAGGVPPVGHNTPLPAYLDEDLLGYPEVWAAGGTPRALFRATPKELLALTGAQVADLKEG

[2] = target: T2, BB_1wnu_001 (backbone grafting 2F5 epitope scaffold on parent PDB 1wnu) (designed scaffold on Pyrococcus …)
T2 chain: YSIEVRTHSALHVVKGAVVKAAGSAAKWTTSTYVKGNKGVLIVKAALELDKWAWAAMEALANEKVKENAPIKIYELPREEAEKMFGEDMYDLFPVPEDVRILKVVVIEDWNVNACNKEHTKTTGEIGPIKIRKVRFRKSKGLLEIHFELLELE

[3] = target: T3, BB_2cx5_001 (backbone grafting 2F5 epitope scaffold on parent PDB 2cx5) (designed scaffold on Thermus …)
T3 chain: T1 chain with V52A, E56S, T76A, G81T, P82D, A86L, D98A

B1: 2F5 monoclonal antibody (2F5 IgG) (antibody, V domains shown)
VH: RITLKESGPPLVKPTQTLTLTCSFSGFSLSDFGVGVGWIRQPPGKALEWLAIIYSDDDKRYSPSLNTRLTITKDTSKNQVVLVMTRVSPVDTATYFCAHRRGPTTLFGVPIARGPVNAMDVWGQGITVTISS
VL: ALQLTQSPSSLSASVGDRITITCRASQGVTSALAWYRQKPGSPPQLLIYDASSLESGVPSRFSGSGSGTEFTLTISTLRPEDFATYYCQQLHFYPHTFGGGTRVDVR
koff [1]: 0.0236 s⁻¹ | kon [1]: 587000 M⁻¹ s⁻¹ | koff [2]: 0.073 s⁻¹ | kon [2]: 8.8e+06 M⁻¹ s⁻¹ | koff [3]: 0.00179 s⁻¹ | kon [3]: 1.31e+06 M⁻¹ s⁻¹

Changes are numbered by the printed parent chain.
